Results deposited as PubChem BioAssay AID1259414 (Drosophila RNAi Screening Center, 2018).
Assay: 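Fly genes that alter Wolbachia amount inside host cells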 (primary screen). System: Drosophila JW18 cells infected with Wolbachia. Knock-down reagent: long dsRNA against Drosophila genes, 0.25 µg dsRNA per well of a 384-well plate. Duration: 5 days. Challenge: cells persistently infected with Wolbachia before knock-down; no added drug. Measured: 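Automated imaging of bacterial rRNA staining divided by host cell count, reported as plate-normalised robust z-score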. Scale: Wolbachia per cell robust z: higher = more Wolbachia per host cell than the plate typical. Call rule: 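Hit when robust z is 1.5 or more, or -1.5 or less, in at least two of three replicates; excludes dsRNAs with several or no targets, genes not expressed in JW18 and well A1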.
In all, the deposit lists about 24,000 reagents; below is an unselected part of those that have a named target and a result. Of all reagents, about 1,210 (5%) are marked active. 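Inactive calls also include excluded dsRNAs with several or no targets, genes unexpressed in JW18, and well A1, regardless of score.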 Unmarked entries are inactive.

scf (supercoiling factor) [DRSC08735]
- Wolbachia per cell robust z, rep 1: -1.47
- Wolbachia per cell robust z, rep 2: 0.389
- Wolbachia per cell robust z, rep 3: 0.125

Oli (Olig family) [DRSC02866]
- Wolbachia per cell robust z, rep 1: 1.31
- Wolbachia per cell robust z, rep 2: 0.0585
- Wolbachia per cell robust z, rep 3: -0.104

Oli (Olig family) [DRSC26246]
- Wolbachia per cell robust z, rep 1: -0.766
- Wolbachia per cell robust z, rep 2: 0.105
- Wolbachia per cell robust z, rep 3: -0.978

ems (empty spiracles) [DRSC25044]
- Wolbachia per cell robust z, rep 1: -0.577
- Wolbachia per cell robust z, rep 2: -0.922
- Wolbachia per cell robust z, rep 3: -1.24

mAChR-C (muscarinic Acetylcholine Receptor, C-type) [DRSC17890]
- Wolbachia per cell robust z, rep 1: -0.39
- Wolbachia per cell robust z, rep 2: -0.542
- Wolbachia per cell robust z, rep 3: -0.277

mAChR-C (muscarinic Acetylcholine Receptor, C-type) [DRSC27441]
- Wolbachia per cell robust z, rep 1: -0.296
- Wolbachia per cell robust z, rep 2: -1.19
- Wolbachia per cell robust z, rep 3: -1.18

Looked up above.
Entry of mAChR-C (muscarinic Acetylcholine Receptor, C-type) [DRSC17890] under “Wolbachia per cell robust z, rep 2”: -0.542
Value of mAChR-C (muscarinic Acetylcholine Receptor, C-type) [DRSC27441] under “Wolbachia per cell robust z, rep 3”: -1.18

More reagents follow.
CG16989 [DRSC18535]
- Wolbachia per cell robust z, rep 1: -1.03
- Wolbachia per cell robust z, rep 2: 0.584
- Wolbachia per cell robust z, rep 3: -1.56

CG16989 [DRSC29403]
- Wolbachia per cell robust z, rep 1: 0.575
- Wolbachia per cell robust z, rep 2: -0.229
- Wolbachia per cell robust z, rep 3: -0.494

Bili (Band4.1 inhibitor LRP interactor) [DRSC14405]
- Wolbachia per cell robust z, rep 1: -0.863
- Wolbachia per cell robust z, rep 2: -0.932
- Wolbachia per cell robust z, rep 3: 1.05

Ir60b (Ionotropic receptor 60b) [DRSC04217]
- Wolbachia per cell robust z, rep 1: 0.433
- Wolbachia per cell robust z, rep 2: -1.39
- Wolbachia per cell robust z, rep 3: -0.454

Ir60b (Ionotropic receptor 60b) [DRSC41470]
- Wolbachia per cell robust z, rep 1: -1.45
- Wolbachia per cell robust z, rep 2: 0.122
- Wolbachia per cell robust z, rep 3: -1.23

Usp10 (Ubiquitin specific protease 10) [DRSC08282]
- Wolbachia per cell robust z, rep 1: 0.24
- Wolbachia per cell robust z, rep 2: -0.219
- Wolbachia per cell robust z, rep 3: 0.115

Usp10 (Ubiquitin specific protease 10) [DRSC08373]
- Wolbachia per cell robust z, rep 1: 1.79
- Wolbachia per cell robust z, rep 2: 0.791
- Wolbachia per cell robust z, rep 3: 1.33
